Test [1] deals with SFTSV Gn glycoprotein ectodomain, strain HB29, Fc fusion (Gn-Fc) (SFTSV (Dabie bandavirus) strain HB29, UniProt A0A0B5A886, strain). As to the kind of experiment: ELISA. The conditions noted are these: both partners purified.
In test [2] the target is SFTSV Gn glycoprotein ectodomain, strain SD4, Fc fusion (Gn-Fc) (SFTSV (Dabie bandavirus) strain SD4, UniProt F1BDJ0, strain). As to the kind of experiment: ELISA. The conditions noted are these: both partners purified.

B1: Ab10 IgG1 antibody (antibody, V domains shown)
VH: EVQLVESGGGVVQPGRSLRLSCAASGFTFSGYGIHWVRQAPGKGLEWVALISYDGSNKYYADSVKGRFTISRDNSKNTLYLQMNSLRAEDTAVYYCAKDRDYFGSGFFDYWGQGTLVTVSS
VL: ELVMTQSPSSLSASVGDTVTITCRASQSIYTYLNWYHQTPGKAPKLLISAASSLQSGVPSRFSGSGSGTDFTLTISSLQPEDFATYYCQQYADVPVTFGGGTKLEIK
notes: also called Ab10 mAb; human IgG1 monoclonal antibody Ab10; source: HEK 293F, transfected, purified from culture supernatant (MabSelect)
For the molecule B1, the binding result in test [1] and in test [2] was “binds” each time.

The values are drawn from article PMC6380599 (PLoS Pathogens, 2019).
